For at least one entry, the source does not settle the construct or the ends of the probe.
Test system: Pae chi-psi complex (DNA polymerase III) (Pseudomonas aeruginosa PAO1)
Test: EMSA
Conditions: low salt, Low salt: 5 mM NaCl, 5 mM KPi pH 7.4, 0.87 M glycerol, 0.5 mM DTT, high salt: 0.3 M NaCl, AUC at 20 C, recombinant protein, protein details: GST on psi, cleaved by PreScission

Sequence | binding result (somewhat lower affinity than ssDNA, 20 mM KPi pH 7.4, 0.5 mM DTT, label: 5' 6FAM on strand A) | binding result (bound more strongly than dsDNA, 20 mM KPi pH 7.4, 0.5 mM …, label: 5' 6FAM, single-stranded DNA)
GGATACGTAACAACGCTTATGCATCGCCGCCGCTACATCCCTGAGCTGAC (double strand) [50mer dsDNA (A/B)] | binds | –
GGATACGTAACAACGCTTATGCATCGCCGCCGCTACATCCCTGAGCTGAC [50mer ssDNA (oligonucleotide A)] | – | binds

Reference: paper PMC3197488
